Data as given in patent US11634743B2, “Coupled, self-sufficient biotransformation of chenodeoxcholic acid to ursodeoxycholic acid and novel enzyme mutants applicable in said process” (Pharmazell GmbH, priority 2016, dated 2023).
“And” between values parts separate entries of the source, which are not always exact repeats. Equal entries are not always repeated.

What was measured:
[1] = target: wild-type Cd7α-HSDH (Clostridioides difficile, UniProt Q18CF0); assay: Kinetic parameters of wild-type Cd7α-HSDH, photometric enzyme assay
[2] = test system: Cd7α-HSDH; assay: Inhibition of Cd7α-HSDH by the product 7-KLCA, photometric assay with 1 mM CDCA
[3] = target: Cd7α-HSDH [A37D] mutant (Clostridioides difficile, UniProt Q18CF0, A37D); assay: Kinetic constants of Cd7α-HSDH [A37D] mutant
[4] = 7-KLCA varied, co-substrate constant 0.2 mM NADPH (reduction)
[5] = NADP^+ varied 1 μM-10 mM, co-substrate constant 1 mM CA
[6] = NADP^+ varied 1 μM-10 mM, co-substrate constant 1 mM CDCA
[7] = higher concentrations of CDCA or NADP^+, cofactor NADP^+
[8] = bile acid varied 5 μM-30 mM, co-substrate constant 0.5 mM NADP^+ (oxidation)
[9] = CDCA varied 5 μM-30 mM, constant 0.5 mM NAD^+

**Q.** For C[C@H](CCC(=O)O)[C@H]1CC[C@H]2[C@@H]3C(=O)C[C@@H]4C[C@H](O)CC[C@]4(C)[C@H]3CC[C@]12C, which Km [1, 4] is on record?
**A.** Its Km is 24.7 µM.

**Q.** What about the kcat [1, 4] of the same compound?
**A.** Its kcat is 0.6 ± 0.0 s⁻¹.

**Q.** And the vmax [1, 4]?
**A.** Its vmax is 1.1 U mg^−1 and 1.1 ± 0.02 U mg^−1.

**Q.** And the “inhibitory effect of the product” value ([2]; 0-20 mM 7-KLCA)?
**A.** The value was “strong inhibitor”.

**Q.** What about the “activity in the presence of product” value ([2]; 1 mM 7-KLCA, Cd7α-HSDH with N-His-Tag) of the same compound?
**A.** Its value is 28%.

**Q.** And the residual activity ([2]; 2.5 mM 7-KLCA, Cd7α-HSDH with N-His-Tag)?
**A.** Its residual activity is “about 10%”.

**Q.** For NC(=O)c1ccc[n+]([C@@H]2O[C@H](COP(=O)([O-])OP(=O)(O)OC[C@H]3O[C@@H](n4cnc5c(N)ncnc54)[C@H](OP(=O)(O)O)[C@@H]3O)[C@@H](O)[C@H]2O)c1, which Km [1, 5] is on record?
**A.** The Km was 49.5 µM.

**Q.** And the kcat [1, 5]?
**A.** The kcat was 80.1 ± 1.6 s⁻¹.

**Q.** And the vmax [1, 5]?
**A.** Its vmax is 159.7 ± 3.2 U mg^−1.

**Q.** What about the Km [1, 6] of the same compound?
**A.** The Km was 42.9 µM.

**Q.** What about the kcat [1, 6] of the same compound?
**A.** The kcat was 5.6 ± 0.2 s⁻¹.

**Q.** And the vmax [1, 6]?
**A.** The vmax was 11.2 ± 0.4 U mg^−1.

**Q.** And the substrate inhibition [1, 7]?
**A.** Its substrate inhibition is “no substrate inhibition was observed”.

**Q.** Which Km [1, 8] does the source give for C[C@H](CCC(=O)O)[C@H]1CC[C@H]2[C@@H]3[C@H](O)C[C@@H]4C[C@H](O)CC[C@]4(C)[C@H]3C[C@H](O)[C@]12C here?
**A.** The Km was 117 µM.

**Q.** And the kcat [1, 8]?
**A.** Its kcat is 46.1 ± 0.7 s⁻¹.

**Q.** And the vmax [1, 8]?
**A.** Its vmax is 91.9 ± 1.4 U mg^−1.

**Q.** And the “activity of CA oxidation relative to CDCA” value ([1]; oxidation with NADP^+)?
**A.** The value was 10 times.

**Q.** How did the substrate inhibition ([1]; CDCA with the cofactor NAD^+) turn out when C[C@H](CCC(=O)O)[C@H]1CC[C@H]2[C@@H]3[C@H](O)C[C@@H]4C[C@H](O)CC[C@]4(C)[C@H]3CC[C@]12C [listing 1 of 2 here] was run?
**A.** The substrate inhibition was “unusual strong substrate inhibition”.

**Q.** What about the residual activity ([1]; at 2.5 mM CDCA, cofactor NAD^+, highest activity at 0.1 mM CDCA) of the same compound?
**A.** The residual activity was “about 10%”.

**Q.** And the Km [1, 8]?
**A.** Its Km is 10.1 µM.

**Q.** And the kcat [1, 8]?
**A.** The kcat was 4.3 ± 0.1 s⁻¹.

**Q.** And the vmax [1, 8]?
**A.** The vmax was 8.5 U mg^−1 and 8.5 ± 0.1 U mg^−1.

**Q.** And the substrate inhibition [1, 7]?
**A.** Its substrate inhibition is “no substrate inhibition was observed”.

**Q.** And the kcat [3, 9]?
**A.** The kcat was 9.8 ± 1.9.

**Q.** And the substrate inhibition ([3]; CDCA with the cofactor NAD^+)?
**A.** Its substrate inhibition is “strong substrate inhibition”.

**Q.** And the vmax ([3]; apparent vmax, CDCA varied 5 μM-30 mM, constant 0.5 mM NAD^+, 25° C., pH 8.0)?
**A.** The vmax was 19.5 ± 3.7.

**Q.** For C[C@H](CCC(=O)O)[C@H]1CC[C@H]2[C@@H]3[C@H](O)C[C@@H]4C[C@H](O)CC[C@]4(C)[C@H]3CC[C@]12C [listing 2 of 2 here], which Km [3, 9] is on record?
**A.** The Km was 340 µM.

**Q.** And the Ki ([3]; read-out: Kl, substrate inhibition, CDCA varied 5 μM-30 mM, constant 0.5 mM NAD^+)?
**A.** The Ki was 4.9 mM.
